A mixed list of measured activities; the numbers were collected in NIAID ChemDB.

All rows: growth or infection tests; organism: Candida albicans; read-out: MIC80

Blank or dashed fields: not listed here. Conditions beyond the fields shown may differ between rows. Two numbers with a dash give a range or band. A number after MIC or MFC names an inhibition level or a share of isolates.

| smiles | strain or isolate | value |
|---|---|---|
| Cc1ccccc1/C=C1\SC(=O)N(CC(O)(Cn2nccn2)c2ccc(F)cc2F)C1=O | CaCYP51 | 8.76 µg/mL |
| CCCCCCCCOc1ccc(-c2ccc(C(=O)NC3CC(NCCN)CNC(=O)[C@@H]4[C@@H](O)[C@@H](C)CN4C(=O)[C@@H](CO)NC(=O)[C@H]([C@H](O)Cc4ccccc4)NC(=O)[C@@H]4C[C@@H](O)CN4C(=O)[C@H]([C@@H](C)O)NC3=O)cc2)cc1 | C26 (fluconazole-resistant) | 0.05 µg/mL |
| OC(Cn1cncn1)(Cn1cncn1)c1ccc(F)cc1F | TIMM3315 (azole-resistant) | 128 µg/mL |
| CO/N=C(/N)c1ccc(-c2ccc(-c3ccc(/C(N)=N\OC)cc3)o2)cc1 | A39 | >100 µg/mL |
| CCC(C)CC(C)/C=C(C)/C=C/CC(C)C(O)C(C)/C=C(C)/C=C/C(O)C(C)c1cc(O)c(C2OC(CO)CC(O)C2O)c(=O)o1 | ATCC 10231 | 6.25 µg/mL |
| N/C(=N\O)c1ccc(OCCCCCOc2ccc(/C(N)=N\O)cc2)cc1 | A39 | >100 µg/mL |
| NC(N)=NCCc1ccc(OCCC(c2ccccc2)(c2ccccc2)c2ccccc2)cc1 | CAF2-1 | 5–10 µg/mL |
| O=C(NCCCN1CCOCC1)c1ccc(-c2ccc(-c3ccc(C(=O)NCCCN4CCOCC4)cc3)o2)cc1 | A39 | >100 µg/mL |
| Fc1ccc(Cn2cc(Cn3ccnc3)c3ccccc32)cc1 | CA980001 | 4 µg/mL |
| CN(C)CCNC(=O)c1ccc(-c2ccc(-c3ccc(C(=O)NCCN(C)C)cc3)o2)cc1 | A39 | >100 µg/mL |
| COc1ccc(/C=C2\SC(=O)N(CC(O)(Cn3nccn3)c3ccc(F)cc3F)C2=O)cc1 | CaCYP51 | 1.06 µg/mL |
| CCCC(c1cn(Cc2ccc(Cl)cc2)c2ccc(Br)cc12)n1ccnc1 | CA980001 | >100 µg/mL |
| O=C1S/C(=C\c2ccc(Br)cc2)C(=O)N1CC(O)(Cn1nccn1)c1ccc(F)cc1F | CaCYP51 | 0.029 µg/mL |
| CCCCCCCCOc1ccc(NC(=O)C(CCCNC(=O)OC(C)(C)C)NC(=O)[C@]2(O)C[C@@H](O)C(O)[C@H](OC(=O)/C=C/c3ccc(O)c(O)c3)C2)cc1 | ATCC 90028 | 4 µg/mL |
| CCCCC(c1cn(Cc2ccc(Cl)cc2)c2ccc(Br)cc12)n1ccnc1 | CA980001 | 45 µg/mL |
| N=C(N)c1ccc(OCCCC(O)COc2ccc(C(=N)N)cc2)cc1 | 102.96 | 12.5 µg/mL |
| CN=[N+]([O-])CC[C@H](N)C(=O)O | KB (azole-resistant) | 17 µg/mL |
| c1cc2nc(CCCCc3nc4ccc(C5=NCCN5)cc4[nH]3)[nH]c2cc1C1=NCCN1 | A39 | >100 µg/mL |
| O=C1S/C(=C\c2ccccc2Br)C(=O)N1CC(O)(Cn1nccn1)c1ccc(F)cc1F | CaCYP51 | 1.92 µg/mL |
| OC(CN1CCN(c2ccc(OCc3ccncc3)cc2)CC1)(Cn1cncn1)c1ccc(F)cc1F | FH1 | ≤0.063 µg/mL |
| N=C(N)c1ccc2nc(CCCCc3nc4ccc(C(=N)N)cc4[nH]3)[nH]c2c1 | A39 | >100 µg/mL |
| OC(CN1CCCN(CCCCOc2ccccc2)C1)(Cn1cncn1)c1ccc(F)cc1F |  | 2.12 µM |
| C[C@@H](c1ncncc1F)[C@](O)(Cn1cncn1)c1ccc(F)cc1F | JL2052 (FLU-R) | 0.5 µg/mL |
| C[C@@H](SC1COC(c2ccc(C(=O)Nc3ccc(C#N)cc3F)cc2)OC1)[C@](O)(Cn1cncn1)c1ccc(F)cc1F | SANK51486 | 0.008 µg/mL |
| Cc1c(Cn2ccnc2)c2ccccc2n1Cc1ccc(F)cc1 | CA980001 | >100 µg/mL |
| N=C(N)c1ccc2nc(-c3cccc(-c4nc5ccc(C(=N)N)cc5[nH]4)n3)[nH]c2c1 | A39 | >100 µg/mL |
| CN(CCCCCOc1ccccc1)CC(O)(Cn1cncn1)c1ccc(F)cc1F |  | 0.04 µM |
| C=C1CC[C@@H](C)[C@H]2[C@@H](C[C@H]3[C@@H]4CC=C5C[C@@H](O)CC[C@]5(C)[C@H]4CC[C@]23C)OC1=O |  | 23 µg/mL |
| O=C1S/C(=C\c2ccc3ccccc3n2)C(=O)N1CC(O)(Cn1nccn1)c1ccc(F)cc1F | CaCYP51 | 1.01 µg/mL |
| OC(CN=C1CCN(CCCCOc2ccccc2)CC1)(Cn1cncn1)c1ccc(F)cc1F |  | >132 µM |
| CCCC(c1cn(Cc2ccc(Cl)cc2)c2ccccc12)n1ccnc1 | CA980001 | >100 µg/mL |
| OC(CN=C1CCN(CCCOc2ccccc2)CC1)(Cn1cncn1)c1ccc(F)cc1F |  | >136 µM |
| N=C(N)c1ccc(OCCCCCO)cc1 | A39 | >100 µg/mL |
| CN(CCCOc1ccccc1)CC(O)(Cn1cncn1)c1ccc(F)cc1F |  | 0.01 µM |
| CC(C)(C)c1ccc(/C=C2\SC(=O)N(CC(O)(Cn3nccn3)c3ccc(F)cc3F)C2=O)cc1 | CaCYP51 | 0.13 µg/mL |

The first 4 rows once more:

smiles	strain or isolate	value
Cc1ccccc1/C=C1\SC(=O)N(CC(O)(Cn2nccn2)c2ccc(F)cc2F)C1=O	CaCYP51	8.76 µg/mL
CCCCCCCCOc1ccc(-c2ccc(C(=O)NC3CC(NCCN)CNC(=O)[C@@H]4[C@@H](O)[C@@H](C)CN4C(=O)[C@@H](CO)NC(=O)[C@H]([C@H](O)Cc4ccccc4)NC(=O)[C@@H]4C[C@@H](O)CN4C(=O)[C@H]([C@@H](C)O)NC3=O)cc2)cc1	C26 (fluconazole-resistant)	0.05 µg/mL
OC(Cn1cncn1)(Cn1cncn1)c1ccc(F)cc1F	TIMM3315 (azole-resistant)	128 µg/mL
CO/N=C(/N)c1ccc(-c2ccc(-c3ccc(/C(N)=N\OC)cc3)o2)cc1	A39	>100 µg/mL